Test system: NTHI biofilms
Assay type: in vivo, chinchilla
Details: anti-inflammatory cytokine; data not shown
Protocol: FIGS. 8A-8F: rHMGB1 and mHMGB1 promote biofilm resolution in an experimental otitis media model. Diluent, 0.2 nmol rHMGB1, or 0.2 nmol mHMGB1 were delivered directly to middle ears of chinchillas at 4 and 5 days post-challenge with NTHI. Animals were sacrificed 24 h later, middle ears were imaged (FIG. 8C, representative images) and, based on the criteria described in (FIG. 8A, biofilm) and (FIG. 8B, inflammation), blindly scored for presence of biofilm (FIG. 8D) and inflammation (FIG. 8F). CFU of NTH1 present in the mucosal biomass were quantified (FIG. 8E). Means and SEM are plotted. **P<0.01, ****P<0.0001.
rHMGB1 and mHMGB1 disrupt biofilms in two distinct animal models but the inflammatory response is strongly attenuated with Cys to Ser mutations: Applicant tested both rHMGB1 and mHMGB1 for their ability to treat middle ear infection and the corresponding inflammatory response using a well-established chinchilla model of experimental OM due to NTHI49,67,68 wherein adhered mucosal biofilm formation plays a key role in pathogenesis (FIG. 8A). […] On day 6, animals were sacrificed and middle ears were imaged and blindly scored for biofilm that remained (FIG. 8A) and mucosal inflammation (FIG. 8B). […] Next, Applicant determined whether rHMGB1 or mHMGB1 could prevent or aggregate biofilm development. […] Next, Applicant assessed the ability of rHMGB1 and mHMGB1 to treat established Bc infection. […]

B1: mHMGB1: engineered C45S variant of full length rHMGB1 that mimics the reduced form of HMGB1 (protein, UniProt P09429 1-215, looked up, variant C45S)
chain: MGKGDPKKPRGKMSSYAFFVQTCREEHKKKHPDASVNFSEFSKKSSERWKTMSAKEKGKFEDMAKADKARYEREMKTYIPPKGETKKKFKDPNAPKRPPSAFFLFCSEYRPKIKGEHPGLSIGDVAKKLGEMWNNTAADDKQPYEKKAAKLKEKYEKDIAAYRAKGKPDAAKKGVVKAEKSKKKKEEEEDEEDEEDEEEEEDEEDEDEEEDDDDE
modifications: full-length
notes: engineered C45S variant of full length rHMGB1 that mimics the reduced form of HMGB1
  increased IL-4 in middle ear fluids: 2 fold
  increased IL-10 in middle ear fluids: 5 fold
